Pooled drug test results. Numbers come from NIAID ChemDB, via PubChem.

Shared fields: growth or infection tests; species: Herpes simplex virus 1; method: virus yield; read-out: inhibition

Percent inhibition refers to the dose given; in toxicity tests it is the harm to the cells.

{"smiles": "Clc1ccc2nc3c(cnc4c3cnn4-c3ccccc3)c(Cl)c2c1", "tested at": "50 µM", "value": "60%"}
{"smiles": "O=c1c2cnc3cc(F)ccc3c2[nH]n1-c1ccc(F)cc1", "tested at": "100 µM", "cell line": "VERO", "value": "26%"}
{"smiles": "O=[N+]([O-])c1ccc2nc3c(cnc4c3cnn4-c3ccccc3)c(Cl)c2c1", "tested at": "50 µM", "value": "87%"}
{"smiles": "O=C1C(=O)N([C@@H]2O[C@H](COCc3ccccc3)[C@@H](OCc3ccccc3)[C@H]2OCc2ccccc2)c2ccccc21", "tested at": "50 µM", "cell line": "VERO", "value": "61%"}
{"smiles": "O=c1ccn([C@@H]2O[C@H](CO)[C@@H](O)[C@@H]2F)c(=O)[nH]1", "tested at": "0.5 µM", "strain or isolate": "F", "cell line": "VERO", "value": "82%"}
{"smiles": "Fc1ccc2nc3c(cnc4c3cnn4-c3ccccc3)c(Cl)c2c1", "tested at": "50 µM", "value": "65%"}
{"smiles": "Nc1nc(=O)n([C@@H]2O[C@H](CO)[C@@H](O)[C@@H]2F)cc1I", "tested at": "0.05 µM", "strain or isolate": "F", "cell line": "VERO", "value": "78%"}
{"smiles": "Cc1ccc2ncc3c(=O)n(-c4ccccc4)[nH]c3c2c1", "tested at": "100 µM", "cell line": "VERO", "value": "20%"}
{"smiles": "Nc1nc2c(ncn2COCCO)c(=O)[nH]1", "tested at": "0.6 µg/mL", "strain or isolate": "7401H", "cell line": "VERO", "value": ">99%"}
{"smiles": "Cc1ccc(-n2nc3c4ccccc4n(C4O[C@H](CO)[C@@H](O)[C@H]4O)cc-3c2=O)cc1", "tested at": "100 µM", "cell line": "VERO", "value": "20%"}
{"smiles": "Cc1cn([C@@H]2O[C@H](CO)[C@@H](O)[C@@H]2F)c(=O)[nH]c1=O", "tested at": "5 µM", "strain or isolate": "F", "cell line": "VERO", "value": "98.5%"}
{"smiles": "Nc1nc2c(ncn2COCCO)c(=O)[nH]1", "tested at": "5 µg/mL", "strain or isolate": "F", "cell line": "HL", "value": "97.5%"}
{"smiles": "O=C1C(=O)N([C@@H]2O[C@H](COCc3ccccc3)[C@@H](OCc3ccccc3)[C@H]2OCc2ccccc2)c2ccc(I)cc21", "tested at": "50 µM", "cell line": "VERO", "value": "37%"}
{"smiles": "Cc1ccc2c(c1)c1nn(-c3ccc(Br)cc3)c(=O)c-1cn2C1O[C@H](CO)[C@@H](O)[C@H]1O", "tested at": "100 µM", "cell line": "VERO", "value": "25%"}
{"smiles": "O=C1C(=O)N([C@@H]2O[C@H](COCc3ccccc3)[C@@H](OCc3ccccc3)[C@H]2OCc2ccccc2)c2ccc(F)cc21", "tested at": "50 µM", "cell line": "VERO", "value": "15%"}
{"smiles": "Nc1ccn([C@H]2O[C@@H](CO)[C@H](O)[C@H]2F)c(=O)n1", "tested at": "5 µM", "strain or isolate": "F", "cell line": "VERO", "value": "96%"}
{"smiles": "Fc1cccc2nc3c(cnc4c3cnn4-c3ccccc3)c(Cl)c12", "tested at": "50 µM", "value": "91%"}
{"smiles": "COc1cccc2c1C(=O)c1c(O)c3c(c(O)c1C2=O)C[C@@](O)(C(C)=O)C[C@@H]3O[C@H]1C[C@H](N)[C@H](O)[C@H](C)O1", "tested at": "0.5 µM", "cell line": "VERO", "value": "0%"}
{"smiles": "Clc1c2cc(Br)ccc2nc2c1cnc1c2cnn1-c1ccccc1", "tested at": "50 µM", "value": "30%"}
{"smiles": "O=C1Nc2ccc(F)cc2C1=O", "tested at": "50 µM", "cell line": "VERO", "value": "60%"}

2 of the rows above, restated:

Nc1nc(=O)n([C@@H]2O[C@H](CO)[C@@H](O)[C@@H]2F)cc1I ; tested at: 0.05 µM ; strain or isolate: F ; cell line: VERO ; value: 78%
Cc1ccc2ncc3c(=O)n(-c4ccccc4)[nH]c3c2c1 ; tested at: 100 µM ; cell line: VERO ; value: 20%

Lines come from different laboratories, so protocols vary.